{
  "source": "patent US20240391942A1",
  "about": "(priority 2021, published 2024)",
  "key": {"[1]": {"test_system": "PCNA, MMP9 and Collagen-1 protein expression", "test": "Western blotting of PCNA, MMP9 and Collagen-1 in Ang2-treated A7R5 cells", "conditions": "Ang2, 50 nM; control 100%, Ang2 220%±22.4% (FIG. 52A)"}, "[2]": {"test_system": "myocardial primary fibroblasts", "conditions": "100 nM, anoxia 24 h; control 100%±5.0%, hypoxic group 137%±[…]"}, "ApoE−/− mice [3]": {"test_system": "ApoE−/− mice", "test": "Body weight and blood glucose of high-fat diet-fed ApoE−/− mice", "conditions": "12 weeks"}, "mouse infarction model": {"test_system": "mouse infarction model", "test": "Mouse infarction model, HE and Masson staining", "conditions": "infarct mouse model, gavage 0.3 mg/Kg; infarct group 45.47%±[…]"}, "[4]": {"test_system": "OVA-induced BALB/c mouse asthma model", "test": "Ovalbumin OVA-induced BALB/c mouse asthma model", "conditions": "asthma model mice; for body weight versus G2 model group: day 32"}, "ApoE−/− mice [5]": {"test_system": "ApoE−/− mice", "test": "Atherosclerotic plaque formation in high-fat diet-fed ApoE−/− mice (aorta oil red O)", "conditions": "0.15 mg/kg gavage once daily, 20 weeks"}, "CCF-STTG1": {"test_system": "CCF-STTG1", "conditions": "CCF-STTG1, Cerebral astrocytoma, 72 hours"}, "SUP-B15": {"test_system": "SUP-B15", "conditions": "SUP-B15, Acute lymphoid B-cell leukemia, 72 hours"}, "CCRF-CEM": {"test_system": "CCRF-CEM", "conditions": "Acute lymphoid T-cell leukemia, 72 hours"}, "KS-1": {"test_system": "KS-1", "conditions": "KS-1, Glioblastoma, 72 hours"}, "[6]": {"test_system": "HRMC cells (COL16A1, COL4A1, CTGF mRNA)", "test": "RT-qPCR of fibrosis genes in TGF-β-treated renal mesangial cells", "conditions": "HRMC cell, 100 nM, TGF-β 1 ng/mL, 24 hours"}, "[7]": {"test_system": "NHCF-V cells (ACTA2, CTGF, PAI-1 mRNA)", "test": "RT-qPCR of fibrosis genes in TGF-β-treated cardiac fibroblasts", "conditions": "NHCF-V cell, 100 nM, TGF-β 1 ng/mL, 24 hours"}, "[8]": {"test_system": "LX-2 cells (ACTA2, COL1A1, TGFβ1 mRNA)", "test": "RT-qPCR of fibrosis genes in TGF-β-treated hepatic stellate cells", "conditions": "LX-2 cell, 100 nM, TGF-β 5 ng/mL, 24 hours"}},
  "data": [
    {"molecule": "O=[As]c1ccccc1", "note": "(stereo not drawn)", "values": [
      {"measurement": "Collagen-1 protein expression (WB)", "setting": "[1]", "value": "136%±8.7%"},
      {"measurement": "proliferative capacity of myocardiac fibroblasts (CCK8)", "setting": "[2]", "value": "statistically significant difference"},
      {"measurement": "random, postprandial and fasting blood glucose", "setting": "ApoE−/− mice [3]", "value": "reduced or tended to reduce"},
      {"measurement": "Collagen-containing area in heart tissue (Masson staining)", "setting": "mouse infarction model", "value": "31.30%±1.48%"},
      {"measurement": "body weight versus G2 model group", "setting": "[4]; PAO 0.1 mpk", "value": "no significant difference"},
      {"measurement": "number of neutrophils in lavage fluid versus G2 model group", "setting": "[4]; PAO 0.3 mpk", "value": "significantly reduced"},
      {"measurement": "body weight versus G2 model group", "setting": "[4]; PAO 0.3 mpk", "value": "no significant difference"},
      {"measurement": "area of the plaques in the whole artery versus model group", "setting": "ApoE−/− mice [5]", "value": "smaller"}
    ]},
    {"molecule": "[2H]c1ccc([As]=O)cc1", "note": "(stereo not drawn)", "values": [
      {"measurement": "IC50", "setting": "CCF-STTG1", "value": 108, "unit": "nM"},
      {"measurement": "IC50", "setting": "SUP-B15", "value": 34.2, "unit": "nM"},
      {"measurement": "IC50", "setting": "CCRF-CEM", "value": 33.5, "unit": "nM"},
      {"measurement": "IC50", "setting": "KS-1", "value": 43.5, "unit": "nM"}
    ]},
    {"molecule": "2-mercaptopropyl-PAO", "values": [
      {"measurement": "Relative changes in mRNA levels (vs. TGF-β treatment), COL4A1", "setting": "[6]", "value": "−7", "unit": "%"},
      {"measurement": "Relative changes in mRNA levels (vs. TGF-β treatment), COL16A1", "setting": "[6]", "value": "−28", "unit": "%"},
      {"measurement": "Relative changes in mRNA levels (vs. TGF-β treatment), CTGF", "setting": "[6]", "value": "−20", "unit": "%"},
      {"measurement": "Relative changes in mRNA levels (vs. TGF-β treatment), ACTA2", "setting": "[7]", "value": "−31", "unit": "%"},
      {"measurement": "Relative changes in mRNA levels (vs. TGF-β treatment), CTGF", "setting": "[7]", "value": 7, "unit": "%"},
      {"measurement": "Relative changes in mRNA levels (vs. TGF-β treatment), PAI-1", "setting": "[7]", "value": "−19", "unit": "%"},
      {"measurement": "Relative changes in mRNA levels (vs. TGF-β treatment), ACTA2", "setting": "[8]", "value": 48, "unit": "%"},
      {"measurement": "Relative changes in mRNA levels (vs. TGF-β treatment), COL1A1", "setting": "[8]", "value": "−3", "unit": "%"},
      {"measurement": "Relative changes in mRNA levels (vs. TGF-β treatment), TGFB1", "setting": "[8]", "value": 7, "unit": "%"}
    ]}
  ]
}
